# Assay results published in US20100284992A1 (priority 2006, published 2010).
# Target: Pseudomonas aeruginosa hemolytic phospholipase C PlcHR2 variant T178A (Thr178Ala) (Pseudomonas aeruginosa, UniProt P06200, T178A)
# Assay: ρ-Nitrophenyl-Phosphorylcholine (NPPC) enzymatic assay, T178A PlcHR2 mutant
# Details: substrate NPPC; calculated using a Mr of 96,000 Da for PlcHR2; pH 7.2, 37° C.
structure (smiles),measurement,value
"C[N+](C)(C)CCOP(=O)([O-])Oc1ccc([N+](=O)[O-])cc1 [NPPC, ρ-nitrophenyl-phosphorylcholine]",kcat,6 s⁻¹
